Test results taken from PMC2936744 (PLoS Pathogens, 2010).

Test system: HCVcc-1a/2a-Rluc
Format: cell-based, hepatitis C virus
Conditions: mean of 8 independent experiments

IFN-α
EC50 of the individual inhibitor in combination experiments: 1.28 IU/ml
